Measured values from several laboratories, pooled; numbers as filed in NIAID ChemDB.

Common to all: cytotoxicity tests; measure: CC50

Lines come from different laboratories, so protocols vary. An empty or dashed field is not shown. CCn: concentration that lowers growth or viability of the cells by n%.

| SMILES | method | cell line | value |
|---|---|---|---|
| O=c1[nH]c(=S)n([C@H]2C[C@H](O)[C@@H](CO)O2)cc1I | - | RPMI8226 | 212 µM |
| C=Cc1cn([C@@H]2O[C@H](CO)[C@@H](O)[C@@H]2O)c(=O)[nH]c1=O | - | HELF | 620 µg/mL |
| Nc1ncnc2c1ccn2[C@@H]1O[C@H](CO)[C@@H](O)[C@H]1O | - | PRK | 0.0061 µg/mL |
| CCOC(=O)c1nc2nc(Cl)c(Cl)nc2[nH]1 | - | VERO | 12.45 µg/mL |
| Nc1cc(OCCOCP(=O)(O)O)nc(N)n1 | - | HepAD38 | >379 µM |
| COc1cc(O)cc2oc3cc(O)c(O)cc3c(=O)c12 | sulforhodamine / absorbance | P-388 | >50 µM |
| O=C(N/N=C(\c1nc2ccc([N+](=O)[O-])cc2[nH]c1=O)C(O)c1ccc([N+](=O)[O-])cc1)c1ccncc1 | - | VERO | >62.5 µg/mL |
| O=C1COC2(CCN(C(=O)c3nn4c(C(F)(F)F)cc(C5CC5)cc4c3Cl)CC2)OC1 | ATP | Huh7 | >50 µM |
| COc1ccc2c(c1)Sc1c(ccc3ccccc13)N2CCCN(C)C | - | VERO | 6 µg/mL |
| CC(C)c1cc2c(c(O)c1O)[C@@]1(C(=O)O)CCCC(C)(C)C1CC2 | XTT | C8166 | 20 µM |
| CCCN(CCC)c1ccc(N=Nc2ccccc2C(=O)O)cc1 | - | VERO | 5 µg/mL |
| Cc1cn([C@H]2C[C@H](NC(=O)NCCCCCNc3ccnc4cc(Cl)ccc34)[C@H](CO[Si](c3ccccc3)(c3ccccc3)C(C)(C)C)O2)c(=O)[nH]c1=O | MTT | HeLa cells | 36.13 µM |
| O=C(O)C1=CC(=C(c2ccc(O)c(C(=O)O)c2)c2ccc(O)c(C(=O)O)c2)C=CC1=O | - | MOLT-4 | 82 µg/mL |
| c1ccc(Cc2cn[nH]c2C2CCN(Cc3ccccn3)CC2)cc1 | MTS | MAGI-CCR5 | >300 µM |
| C=C[C@@]1(C)C=C2CC[C@@H]3[C@](C)(CCC[C@@]3(C)C(=O)O)[C@H]2CC1 | absorbance | NCl-H187 | 42.11 µg/mL |
| CC(C)c1cc2c(c(O)c1O)[C@@]13CCCC(C)(C)C1CC2OC3=O | XTT | C8166 | 40 µM |
| CCCCC#CCSc1ccccc1OC(C)=O | MTT | Feline thymocyte | 87 µM |
| CCCCCCCCCCCCCCCCOP(=O)([O-])OCC[n+]1ccccc1 | MTT | HUVEC | 94 µM |
| Nc1ccn([C@@H]2CC[C@H](CO)O2)c(=O)n1 | - | Macrophage | 90 µM |
| Cc1cn([C@H]2C[C@H](NC(=O)CC3CCC4(CC3)OOC3(OO4)C4CC5CC(C4)CC3C5)[C@H](CO)O2)c(=O)[nH]c1=O | MTT | HeLa cells | 23.38 µM |
| NC(N)=NC(=O)c1nc(Cl)c(N)nc1N | - | MDM | >10 µM |
| CC(C)c1nccc(CN2CCC(c3[nH]ncc3Cc3ccccc3)CC2)n1 | MTS | MAGI-CCR5 | >100 µM |
| O=C1CCC(c2ccccc2)C(=O)N1 | MTT | VERO 76 | 98 µM |
| Cc1cn([C@H]2C[C@H](N=[N+]=[N-])[C@@H](CO)O2)c(=O)[nH]c1=O | - | M0.MO | 10 µg/mL |
| COc1ccc(C[C@H](N)C(=O)N[C@H]2[C@@H](O)[C@H](n3cnc4c(N(C)C)ncnc43)O[C@@H]2CO)cc1 | - | VERO | 1.3 µg/mL |
| COc1cc(-c2ccccc2)c(OC)c(OC)c1O | sulforhodamine / absorbance | MCF-7 | >50 µM |
| O=c1[nH]c(=O)n([C@H]2C[C@H](O)[C@@H](CO)O2)cc1C12B3B4B5B6B(B3B1B42)B1B5C61 | - | SK-MES-1 | >100 µM |
| CCCCCCCCCc1ccc(OCCOCCOCCOCCOCCOCCOCCOCCOCCO)cc1 | - | Human vaginal epithelial | 39 µM |
| O=c1[nH]c(=S)n([C@@H]2O[C@H](CO)[C@@H](O)[C@@H]2O)cc1Cl | - | RPMI8226 | 823 µM |
| Nc1nc(=O)n(CC#CCO)cc1F | - | 2.2.15 | >100 µM |
| CCC/C=C1\OC(=O)c2ccccc21 | - | RAW 264.7 | 250 µg/mL |
| NC(=O)c1cccnc1 | - | SupT1 | >10000 µM |
| C[C@@H](CO)CCC[C@@H](C)[C@H]1[C@@H](O)C[C@H]2[C@@H]3CC=C4C[C@@H](O)CC[C@]4(C)[C@H]3CC[C@]12C | tetrazolium | Vero cells | >128 µM |
| COc1cc2oc3c(C)c(=O)cc4oc(-c5ccccc5)cc(c2c2c1CC[C@@H](c1ccccc1)O2)c43 | - | VERO | >10 µg/mL |
| CC(=O)O[C@H]1CC[C@@]2(C)[C@@H](CC(=O)[C@@H]3[C@@H]2CC[C@]2(C)[C@@H]([C@H](C)CCCC(C)(C)O)CC[C@@H]32)C1 | tetrazolium | Vero cells | >128 µM |
| N#CCc1c(N)nc(N)nc1OCCOCP(=O)(O)O | - | HepAD38 | >330 µM |
| CC(C)C12C=C3CC[C@H]4[C@](C)(C(=O)O)CCC[C@]4(C)[C@]3(CC1)OO2 | absorbance | NCl-H187 | 7.5 µg/mL |
| NCCCCCNc1ccnc2cc(Cl)ccc12 | MTT | HeLa cells | 56.64 µM |
| Nc1ccn([C@H]2CC[C@@H](CO)O2)c(=O)n1 | - | BCC-1/KMC | 259.2 µg/mL |
| Cc1cn([C@H]2C[C@H](NC(=O)NCCNc3ccnc4cc(Cl)ccc34)[C@H](CO)O2)c(=O)[nH]c1=O | MTT | HeLa cells | >100 µM |
| C[C@@H](COc1cc(N)nc(N)n1)OCP(=O)(O)O | - | HEPAD79 | >360 µM |
| CO[C@H]1/C=C/O[C@@]2(C)Oc3c(C)c(O)c4c(O)c(c5sc(N)nc5c4c3C2=O)NC(=O)/C(C)=C\C=C\[C@H](C)[C@H](O)[C@@H](C)[C@@H](O)[C@@H](C)[C@H](OC(C)=O)[C@@H]1C | - | VERO | >10 µg/mL |
| C[C@H]1[C@H](O)C(=O)CC2[C@]3(C)CC[C@@]4(C)C5CC(C)(C)CC[C@]5(C)CC[C@]4(C)C3CC[C@@]21C | sulforhodamine / absorbance | P-388 | >50 µM |
| CC1(C)C=CC[C@@]2(C)CC(CO)C(C)(C)[C@H]12 | - | RAW 264.7 | 125 µg/mL |
| CC(C)CCC[C@@H](C)[C@H]1CC[C@H]2[C@@H]3C(=O)C[C@H]4C[C@@H](O)CC[C@]4(C)[C@H]3CC[C@]12C | tetrazolium | Vero cells | 62 µM |
| O=C1c2c(O)cc(O)cc2O[C@@H](c2ccc(O)cc2)[C@@H]1c1c(O)cc(O)c2c(=O)cc(-c3ccc(O)c(O)c3)oc12 | XTT / absorbance | 1A2 | 179 µM |
| O=C(O)P(=O)(O)O | - | H4 | 260 µg/mL |
| O=C(c1nn2c(C(F)(F)F)cc(C3CC3)cc2c1Cl)N1CCC2(CC1)OCCCO2 | ATP | Huh7 | >50 µM |
| CCN(CC)c1cc2oc3cc(N)cc(=N)c-3nc2cc1C | - | VERO | 0.993 µg/mL |
| Nc1ccn(C[C@@H](CO)OCP(=O)(O)O)c(=O)n1 | - | H4 | 45 µg/mL |
| O=C(c1nn2c(C(F)(F)F)cc(C3CC3)cc2c1Cl)N1CCC2(CC1)OCC1(CC1)CO2 | ATP | Huh7 | >50 µM |
| C[C@H](CCCC(C)(C)O)[C@H]1CC[C@H]2[C@@H]3[C@@H](O)C[C@H]4C[C@@H](O)CC[C@]4(C)[C@H]3CC[C@]12C | tetrazolium | Vero cells | >128 µM |
| CCCCCCCCCCCCCCCCOP(=O)([O-])OCCC[N+](C)(C)Cc1ccccc1 | MTT | MCF | 57.6 µM |
| Cc1ccc(CSc2ncnc3c2ncn3[C@@H]2C[C@H](CO)[C@@H](O)[C@H]2O)cc1 | MTT | CRL-1634 | >100 µM |
| Cc1ccc2nc(Nc3ccc(Cl)cc3)cc(C(O)C3CCCCN3)c2c1 | - | VERO | 4.1 µg/mL |
| Nc1ccn([C@@H]2O[C@H](CO)C[C@@H]2F)c(=O)n1 | - | MOLT-4 | 7 µg/mL |
| O=C1C=CN([C@@H]2O[C@H](CO)[C@@H](O)[C@H]2O)C(=O)C1 | - | VERO 76 | 320 µg/mL |
| Cc1ccc(NCCNCC(O)CO)c2c(=O)c3ccccc3sc12 | - | VERO | 4.1 µg/mL |
| CC(=O)O[C@H]1CC[C@@]2(C)[C@@H](CC(=O)[C@@H]3[C@@H]2CC[C@]2(C)[C@@H]([C@H](C)CCCC(C)C)CC[C@@H]32)C1 | tetrazolium | Vero cells | >128 µM |
| O=C(Nc1ccc(Nc2ccncc2)cc1)c1ccc(Nc2ccnc3ccc([N+](=O)[O-])cc23)cc1[N+](=O)[O-] | - | VERO | >10 µg/mL |
| CC(C)CCC[C@@H](C)[C@H]1CC[C@H]2[C@@H]3CC(=O)[C@H]4C[C@@H](O)CC[C@]4(C)[C@H]3CC[C@]12C | tetrazolium | Vero cells | 92 µM |
| Nc1ncc(N2CCC(c3[nH]ncc3Cc3ccccc3)CC2)cn1 | MTS | MAGI-CCR5 | >300 µM |
| CC(=O)O[C@H]1C(=O)[C@]2(C)[C@@H](OC(C)=O)C[C@H]3OC[C@@]3(OC(C)=O)[C@H]2[C@H](OC(=O)c2ccccc2)[C@]2(O)C[C@H](OC(=O)[C@H](OC(C)=O)[C@@H](NC(=O)c3ccccc3)c3ccccc3)C(C)=C1C2(C)C | - | VERO | 4.6 µg/mL |
| NC(=O)c1ncn([C@@H]2O[C@H](CO)[C@@H](O)[C@H]2O)c1C#CCO | - | PRK | 0.55 µg/mL |
| C[C@]1(/C=C/Cl)C[C@](Cl)(CBr)[C@@H](Br)C[C@H]1Cl | - | ZR | 7.8 µg/mL |
| Nc1ccn([C@H]2CC[C@@H](CO)O2)c(=O)n1 | - | CFU-GM | 0.7 µM |
| CCOP(=O)(N[C@@H](C)C(=O)OC)OC[C@H]1O[C@@H](n2cc(C)c(=O)[nH]c2=O)C[C@@H]1N=[N+]=[N-] | - | MOLT-4 | 250 µg/mL |
| O=C(/C=C/c1ccc(Cl)cc1)Nc1n[nH]c(-c2ccccc2)n1 | MTT | VERO Cell line | 1280 µM |
| O=c1ccn([C@H]2C[C@H](O)[C@@H](CO)O2)c(=S)[nH]1 | - | RPMI8226 | 288 µM |
| COc1c2ccoc2cc2oc(=O)ccc12 | - | RAW 264.7 | 100 µg/mL |
| C/C=C1/C(=O)O[C@]23C=C[C@@H]4C(C(=O)OC)=CO[C@H](O[C@@H]12)[C@@H]43 | MTT | J774G8 | 6.97 µg/mL |
| O=c1[nH]c(=O)n([C@H]2C[C@H](O)[C@@H](CO)O2)cc1F | - | RPMI8226 | 32.3 µM |
| O=C1CCC(c2ccccc2)C(=O)N1CCCCN1CCN(Cc2ccccc2)CC1 | MTT | VERO 76 | 96 µM |
| CCCCCCCCCCCCCCCCOP(=O)([O-])OCC[N+](C)(C)Cc1ccccc1 | MTT | HUVEC | >100 µM |
| OC[C@H]1C[C@@H](n2cnc3c(SCc4ccc(Cl)cc4)ncnc32)[C@H](O)[C@@H]1O | MTT | CRL-1634 | >100 µM |
| Nc1cc(CN2CCC(c3[nH]ncc3Cc3ccccc3)CC2)ncn1 | MTS | MAGI-CCR5 | >100 µM |
| NC(=S)N/N=C/c1cn(Cc2ccccc2)c2ccccc12 | - | VERO | 7.2 µg/mL |
| Nc1ccn(CC#CCO)c(=O)n1 | - | 2.2.15 | >100 µM |
| Cc1cn([C@H]2C[C@H](N=[N+]=[N-])[C@@H](CO)O2)c(=O)[nH]c1=O | ATP / luminescence | MT4-GFP | >8.4 µM |
| Nc1ncnc2c1ncn2CCOCP(=O)(O)O | MTT | CrFK | 30 µM |
| Cc1cn([C@@H]2O[C@H](CO)[C@@H](O)[C@@H]2O)c(=S)[nH]c1=O | - | RPMI8226 | >365 µM |
| O=C(N/N=C/c1ccc2c(c1)OCO2)c1ccncc1 | - | VERO | >10 µg/mL |
| O=c1c2cc(O)c(O)cc2oc2cc(O)cc(O)c12 | sulforhodamine / absorbance | P-388 | 12.34 µM |
| CC(C)(C)CC(C)(C)c1ccc(OCCOP(=O)([O-])OCCC[N+](C)(C)Cc2ccccc2)cc1 | MTT | MCF | >100 µM |
| Nc1ccc2cc3[nH]c4cc(N)ccc4c3nc2c1 | - | VERO | <0.257 µg/mL |
| O=C(O)C(=O)CC(=O)c1cc(OCc2ccccc2)cc(OCc2ccccc2)c1 | - | HuT-78 | >50 µM |
| Nc1ccn([C@H]2CC[C@@H](CO)O2)c(=O)n1 | MTT | JM | 0.5 µg/mL |
| CCN(CC)CCCNc1cc(OC)cc2nc3cc(Cl)ccc3nc12.Cl.Cl | - | VERO | 1.1 µg/mL |
| C[C@H](COc1cc(N)nc(N)n1)OCP(=O)(O)O | - | HEPAD79 | >360 µM |
| CSC(=S)N/N=C(/C)c1ccco1 | - | VERO | 0.95 µg/mL |
| O=C1CCC(c2ccccc2)C(=O)N1CCCN1CCN(c2ccccc2O)CC1 | MTT | VERO 76 | >100 µM |
| C=CCn1c(=O)c(C(=O)Nc2nc(C34CC5CC(CC(C5)C3)C4)cs2)c(O)c2ccccc21 | - | VERO | 2.4 µg/mL |
| OC[C@H]1N[C@H](CO)[C@@H](O)[C@@H]1O | - | MOLT-4 | 433 µg/mL |
| O=C1c2ccccc2C(=O)c2sc(Nc3ccc([N+](=O)[O-])cc3)nc21 | - | VERO | 1.9 µg/mL |
| COc1ccccc1N1CCN(CCCN2C(=O)CCC(c3ccccc3)C2=O)CC1 | MTT | VERO 76 | >100 µM |

For reference, 6 entries again:

SMILES,method,cell line,value
O=C1c2ccccc2C(=O)c2sc(Nc3ccc([N+](=O)[O-])cc3)nc21,-,VERO,1.9 µg/mL
Nc1cc(OCCOCP(=O)(O)O)nc(N)n1,-,HepAD38,>379 µM
CC(C)c1cc2c(c(O)c1O)[C@@]13CCCC(C)(C)C1CC2OC3=O,XTT,C8166,40 µM
Cc1ccc2nc(Nc3ccc(Cl)cc3)cc(C(O)C3CCCCN3)c2c1,-,VERO,4.1 µg/mL
COc1ccccc1N1CCN(CCCN2C(=O)CCC(c3ccccc3)C2=O)CC1,MTT,VERO 76,>100 µM
Cc1cn([C@H]2C[C@H](N=[N+]=[N-])[C@@H](CO)O2)c(=O)[nH]c1=O,-,M0.MO,10 µg/mL